Laboratory results from patent US20220387578A1, “Peptide vaccine based on a new universal influenza a hemagglutinin head domain epitope and human monoclonal antibodies binding thereto” (VANDERBILT UNIVERSITY, published 2022).

Key:
[1] = molecular target: H1 HA A/California/04/2009 (H1N1), recombinant soluble uncleaved trimer (HA0) (influenza A virus); assay: ELISA on coated recombinant HA
[2] = molecular target: T1, H7 HA A/Netherlands/219/2003 (H7N7), recombinant (influenza A virus); assay: ELISA
[3] = molecular target: T2, H1 HA A/Solomon Islands/03/2006 (H1N1), recombinant soluble trimer (influenza A virus); assay: BLI, biotinylated HA on streptavidin sensor
T2 construct: extracellular domain

[4] = molecular target: T3, H7 HA A/Shanghai/2/2013 (H7N9), recombinant uncleaved trimer (influenza A virus); assay: BLI, biotinylated HA on streptavidin sensor
[5] = molecular target: T4, H1 HA A/Texas/36/1991 (H1N1), recombinant soluble trimer (influenza A virus); assay: BLI, biotinylated HA on streptavidin sensor
T4 construct: extracellular domain

[6] = molecular target: H2 HA A/Adachi/2/1957 (H2N2) (influenza A virus); assay: BLI, biotinylated HA on streptavidin sensor
[7] = molecular target: T1, H7 HA A/Netherlands/219/2003 (H7N7), …; assay: BLI, biotinylated HA on streptavidin sensor
[8] = molecular target: H5 HA A/Indonesia/05/2005 (H5N1), recombinant (influenza A virus); assay: ELISA
[9] = molecular target: H14 HA A/mallard duck/Astrakhan/263/1982, recombinant (influenza A virus); assay: ELISA
[10] = molecular target: T3, H7 HA A/Shanghai/2/2013 (H7N9), …; assay: ELISA
[11] = molecular target: H9 HA A/Hong Kong/1073/99, recombinant (influenza A virus); assay: ELISA
[12] = molecular target: H2 HA A/Singapore/1/1957, recombinant soluble trimer (influenza A virus); assay: ELISA
[13] = molecular target: T5, H3 HA A/Texas/50/2012, recombinant soluble trimer (influenza A virus); assay: ELISA
T5 construct: extracellular domain

[14] = molecular target: H15 HA A/shearwater/Western Australia/2576/1979, recombinant (influenza A virus); assay: ELISA

B1: mAb H5.28 (hybridoma IgG) (antibody, V domains shown)
VH: EVQLVESGGGLVQPGGSLRLSCAASGFTFSTYWMTWVRQAPGKGLEWVANINQDGGEKYFVDSVKGRFTISRDNAKNSLFLQMNTLRAEDTAVYYCARGFLERLLLGRQGAYYYGMDVWGQGTTVTVSS
VL: DIQMTQSPSSLSASVGDRVSMTCRASQIISSSLNWYQQKPGKAPKLLIYAASNLQSGVPSRFSGSGSGTDFTLTISSLQPEDFATYYCQQSYSTPPELTFGGGTKVEIK
[1]
  EC50: 0.026 µg/mL

B2: mAb H5.31 (hybridoma IgG) (antibody, V domains shown)
VH: EVQLVQSGGGLVQPGGSLRLSCEASRFTSSSYWITWVRQAPGKGLEWVANIKQDGSEKYFVDSVKGRFTISRDNASNSLYLQMSSLRAEDTAVYYCARGFLERLLLGRQGAYYYGMDVWGQGTTVTVSS
VL: DIQMTQSPSSLSASVGDRVTMTCRASQSISSSLNWYQQKPGKAPKLLIYAASNLQSGVPSRFSGSGSGTDFTLTISSLQPEDFATYYCQQSYTMPPELTFGGGTKVQIK
[1]
  EC50: 0.005 µg/mL

B3: rFluA-20 heavy chain mutant E97A (antibody, V domains shown)
VH: QVQLQESGPGLVKPSETLSLTCSVSGVSVTSDIYYWTWIRQPPGKGLEWIGYIFYNGDTNYNPSLKSRVTMSIDTSKNEFSLRLTSVTAADTAVYFCARGTADLGYCSSGSCPNHWGQGTLVTVSS
VL: DIQMTQSPSSLSASIGDRVTITCRPSQNIRSFLNWFQHKPGKAPKLLIYAASNLQSGVPSRFSGSGSGTEFTLTIRSLQPEDFATYYCQQSYNTPPTFGQGTKVEIK
[2]
  EC50: 0.08 µg/mL

B4: rFluA-20 heavy chain mutant Y34A (antibody, V domains shown)
VH: QVQLQESGPGLVKPSETLSLTCSVSGVSVTSDIAYWTWIRQPPGKGLEWIGYIFYNGDTNYNPSLKSRVTMSIDTSKNEFSLRLTSVTAADTAVYFCARGTEDLGYCSSGSCPNHWGQGTLVTVSS
VL: DIQMTQSPSSLSASIGDRVTITCRPSQNIRSFLNWFQHKPGKAPKLLIYAASNLQSGVPSRFSGSGSGTEFTLTIRSLQPEDFATYYCQQSYNTPPTFGQGTKVEIK
[2]
  EC50: 0.07 µg/mL

B5: rFluA-20 heavy chain mutant Y100aA (antibody, V domains shown)
VH: QVQLQESGPGLVKPSETLSLTCSVSGVSVTSDIYYWTWIRQPPGKGLEWIGYIFYNGDTNYNPSLKSRVTMSIDTSKNEFSLRLTSVTAADTAVYFCARGTEDLGACSSGSCPNHWGQGTLVTVSS
VL: DIQMTQSPSSLSASIGDRVTITCRPSQNIRSFLNWFQHKPGKAPKLLIYAASNLQSGVPSRFSGSGSGTEFTLTIRSLQPEDFATYYCQQSYNTPPTFGQGTKVEIK
[2]
  EC50 relative to wild type rFluA-20: > 100 fold

B6: FluA-20 UCA Fab (Fab, V domains shown)
VH: QVQLQESGPGLVKPSETLSLTCTVSGGSVSSGSYYWSWIRQPPGKGLEWIGYIYYSGSTNYNPSLKSRVTISVDTSKNQFSLKLSSVTAADTAVYYCARGTEDLGYCSGGSCPNHWGQGTLVTVSS
VL: not shown
[3]
  Kd: 325 nM
[4]
  Kd: 745 nM
[5]
  Kd: 348 nM
[6]
  Kd: 201 nM
[7]
  Kd: 1020 nM

B7: rFluA-20 IgG (recombinant FluA-20) (antibody, V domains shown)
VH: QVQLQESGPGLVKPSETLSLTCSVSGVSVTSDIYYWTWIRQPPGKGLEWIGYIFYNGDTNYNPSLKSRVTMSIDTSKNEFSLRLTSVTAADTAVYFCARGTEDLGYCSSGSCPNHWGQGTLVTVSS
VL: DIQMTQSPSSLSASIGDRVTITCRPSQNIRSFLNWFQHKPGKAPKLLIYAASNLQSGVPSRFSGSGSGTEFTLTIRSLQPEDFATYYCQQSYNTPPTFGQGTKVEIK
[8]
  EC50: 0.016 µg/mL
[9]
  EC50: 0.007 µg/mL
[10]
  EC50: 0.013 µg/mL
[11]
  EC50: 0.007 µg/mL
[12]
  EC50: 0.011 µg/mL
[13]
  EC50: 0.007 µg/mL
[14]
  EC50: 0.007 µg/mL
